Measurements reported in PubChem BioAssay AID624099 (ICCB-Longwood, 2012)
Shown is one part, drawn at random, of about 21,000 deposited reagents. Over the whole deposit, 497 (2.4%) got an active call. 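Higher z means weaker E2 silencing; only reporter increases were scored, and knock-downs that hurt cell survival may mask genuine repressor factors.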 No sequences are given here.

Assay: 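Host factors E2 relies on to silence an HPV18 LCR reporter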 (primary screen)
Cell system: human C33A cervical carcinoma cells (HPV-negative) stably expressing BPV1 E2 and an HPV18 LCR luciferase reporter
Knock-down reagent: siRNA pool against human genes, 40 nM
Duration: 72 h
Detection: 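Per-well luciferase luminescence, z-scored on each plate against the plate mean and SD with control wells left out, then averaged across three replicate plates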
Reading the numbers: mean z-score and z-score: higher = stronger reporter signal, weaker E2 silencing
Call rule: 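Mean z ≥ 2 together with z ≥ 2 in two or more of the three replicates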

Against CEP89, the entry reads mean z-score 0.42; z-score, replicate A = 0; z-score, replicate B = 0.43; z-score, replicate C = 0.83; inactive. After knock-down of CDC42BPA, the record shows mean z-score -0.21; z-score, replicate A = -0.75; z-score, replicate B = -0.33; z-score, replicate C = 0.45; inactive. SOX18 showed mean z-score 1.13; z-score, replicate A = 1.3; z-score, replicate B = 1.03; z-score, replicate C = 1.05; inactive. Knock-down of ZNF710 came out at: mean z-score -0.51; z-score, replicate A = 0.16; z-score, replicate B = -0.84; z-score, replicate C = -0.86; inactive. Knock-down of TSHZ1 came out at: mean z-score 0.46; z-score, replicate A = 0.73; z-score, replicate B = 0.43; z-score, replicate C = 0.23; inactive. EHBP1 scored mean z-score -1.29; z-score, replicate A = -1.55; z-score, replicate B = -1.33; z-score, replicate C = -0.99; inactive.

For NDUFAF5 the deposit lists mean z-score 0.03; z-score, replicate A = 0.17; z-score, replicate B = -0.15; z-score, replicate C = 0.06; inactive. Against ACSBG2, the values are mean z-score -0.53; z-score, replicate A = -0.68; z-score, replicate B = -0.66; z-score, replicate C = -0.24; inactive. Silencing of LOC388476 (retired record) came out at: mean z-score 0.14; z-score, replicate A = 0.55; z-score, replicate B = -0.02; z-score, replicate C = -0.12; inactive. Depletion of C10orf120 came out at: mean z-score 0.35; z-score, replicate A = 0.22; z-score, replicate B = 0.23; z-score, replicate C = 0.59; inactive. With knock-down of SERPINB6 the results were mean z-score -0.02; z-score, replicate A = 0.45; z-score, replicate B = -0.6; z-score, replicate C = 0.1; inactive.

Part of the list above in another layout.
{"Target gene":"EHBP1","mean z-score":-1.29,"z-score, replicate A":-1.55,"z-score, replicate B":-1.33,"z-score, replicate C":-0.99,"Call":"inactive"}
{"Target gene":"NDUFAF5","mean z-score":0.03,"z-score, replicate A":0.17,"z-score, replicate B":-0.15,"z-score, replicate C":0.06,"Call":"inactive"}
{"Target gene":"ACSBG2","mean z-score":-0.53,"z-score, replicate A":-0.68,"z-score, replicate B":-0.66,"z-score, replicate C":-0.24,"Call":"inactive"}

Further entries follow:
With knock-down of NEK7, the screen gave mean z-score 0.36; z-score, replicate A = 0.13; z-score, replicate B = 0.36; z-score, replicate C = 0.61; inactive. Against WBP2NL, the values are mean z-score 1.45; z-score, replicate A = 1.32; z-score, replicate B = 1.49; z-score, replicate C = 1.55; inactive. Silencing of LRRC74B resulted in: mean z-score 0; z-score, replicate A = -0.19; z-score, replicate B = -0.12; z-score, replicate C = 0.31; inactive. After knock-down of CBX7, the screen gave mean z-score -0.53; z-score, replicate A = -0.53; z-score, replicate B = -0.59; z-score, replicate C = -0.48; inactive. Silencing of DCTPP1 came out at: mean z-score -1; z-score, replicate A = -0.89; z-score, replicate B = -1.21; z-score, replicate C = -0.91; inactive. For COA7, the entry reads mean z-score 0.39; z-score, replicate A = 0.26; z-score, replicate B = 0.59; z-score, replicate C = 0.32; inactive.

Silencing of NUS1 came out at: mean z-score -0.02; z-score, replicate A = -0.17; z-score, replicate B = 0.14; z-score, replicate C = -0.04; inactive. For ELL3, the entry reads mean z-score -1.04; z-score, replicate A = -1.31; z-score, replicate B = -1.2; z-score, replicate C = -0.6; inactive. Depletion of LAMTOR5 came out at: mean z-score -1.11; z-score, replicate A = -0.86; z-score, replicate B = -1.18; z-score, replicate C = -1.29; inactive. Silencing of REEP6 gave: mean z-score 0.56; z-score, replicate A = 0.6; z-score, replicate B = 0.8; z-score, replicate C = 0.27; inactive. CIAO1 gave mean z-score -0.02; z-score, replicate A = -0.07; z-score, replicate B = 0.05; z-score, replicate C = -0.05; inactive. For CHD4, the values are mean z-score -0.81; z-score, replicate A = -0.78; z-score, replicate B = -0.81; z-score, replicate C = -0.85; inactive.

After knock-down of OR4D10 the results were mean z-score 1.58; z-score, replicate A = 2.07; z-score, replicate B = 1.22; z-score, replicate C = 1.46; inactive. KCNIP4 showed mean z-score 0.19; z-score, replicate A = -0.03; z-score, replicate B = 0.45; z-score, replicate C = 0.16; inactive. For BOLA3, the entry reads mean z-score -0.28; z-score, replicate A = -0.11; z-score, replicate B = -0.41; z-score, replicate C = -0.32; inactive. Depletion of RPIA gave: mean z-score 1.58; z-score, replicate A = 1.79; z-score, replicate B = 1.1; z-score, replicate C = 1.85; inactive.
